Anti-infective test results gathered from many reports (values: NIAID ChemDB through PubChem).

Shared fields: tests in culture; agent: Candida krusei; measure: MIC

Lines come from different laboratories, so protocols vary.

smiles	strain	conditions	method	result
OC(CCn1ccnc1)c1ccc(Br)cc1	RTCC 1001	-	broth dilution	>64 µg/mL
CC(C)c1ccc(NS(=O)(=O)c2ccc(CN(C)CC(O)(Cn3cncn3)c3ccc(F)cc3F)cc2)cc1	8	-	resazurin	0.85 µg/mL
C[N-]c1nc(NOC)c2c(n1)[N+](C)=C=[N+]2C/C=C(\C)CC/C=C(\C)CC/C=C(\C)CCC=C(C)C	ATCC 6258	-	agar	2 µg/mL
C[C@@H]1C(=O)N(Cc2ccccc2)C(=O)[C@@H]1C	CCC 117-2000	-	broth dilution / turbidity	62.5 µg/mL
O=C1c2ccccc2CC1Cn1ccnc1	RTCC 1090	-	broth dilution	>64 µg/mL
CN(Cc1ccc(NS(=O)(=O)c2ccc([N+](=O)[O-])cc2)cc1)CC(O)(Cn1cncn1)c1ccc(F)cc1F	8	-	resazurin	18.3 µg/mL
CC1CC(=O)N(c2ccc(Br)cc2)C1=O	CCC 117-2000	-	broth dilution / turbidity	125 µg/mL
CONc1nc([O-])nc2c1[N+](C/C=C(\C)CC/C=C(\C)CC/C=C(\C)CCC=C(C)C)=C=[N+]2C	ATCC 6258	-	agar	>16 µg/mL
C[C@@H]1C(=O)N(CCCCc2ccccc2)C(=O)[C@@H]1C	CCC 117-2000	-	broth dilution / turbidity	62.5 µg/mL
O=C(CCn1ccnc1)c1ccc(Br)cc1	RTCC 1001	-	broth dilution	>64 µg/mL
Cc1ccc(N2C(=O)C[C@@H](C)C2=O)cc1	CCC 117-2000	-	broth dilution / turbidity	62.5 µg/mL
CN(Cc1ccc(S(=O)(=O)Nc2ccccc2)cc1)CC(O)(Cn1cncn1)c1ccc(F)cc1F	8	-	resazurin	1.8 µg/mL
CO[N-]c1ncnc2c1[N+](C/C=C(\C)CC/C=C(\C)CC/C=C(\C)CCC=C(C)C)=C=[N+]2C	ATCC 6258	-	agar	2 µg/mL
C[C@@H]1CC(=O)N(c2ccc(Cl)cc2)C1=O	CCC 117-2000	-	broth dilution / turbidity	125 µg/mL
CN(Cc1ccc(S(N)(=O)=O)cc1)CC(O)(Cn1cncn1)c1ccc(F)cc1F	8	-	resazurin	13.2 µg/mL
Cc1ccccc1N1C(=O)C[C@@H](C)C1=O	CCC 117-2000	-	broth dilution / turbidity	62.5 µg/mL
CN(Cc1ccc(S(=O)(=O)N2CCOCC2)cc1)CC(O)(Cn1cncn1)c1ccc(F)cc1F	506	-	resazurin	13.4 µg/mL
O=C(CCn1ccnc1)c1cccc(O)c1	RTCC 1090	-	broth dilution	32 µg/mL
Cc1ccccc1N1C(=O)CC(C)C1=O	CCC 117-2000	-	broth dilution / turbidity	125 µg/mL
Ic1ccc(-c2csc(N/N=C\c3cccc4ccccc34)n2)cc1	Clinical isolates	48 h	-	2 µg/mL
O=C(CCn1ccnc1)c1cccc(C(O)c2ccc(Cl)c(Cl)c2)c1	RTCC 1001	-	broth dilution	64 µg/mL

An empty or dashed field is not shown.